Test results published in US9295730B2, “Conjugated molecules comprising a peptide derived from the CD4 receptor coupled to a polyanion for the treatment of AIDS” (Institut Pasteur, priority 2008, dated 2016).

Key:
Type in all cases: cell-based
[1] = test system: R5-tropic HIV-1/Ba-L; assay: Antiviral assay, PHA-P-activated PBMC infected with HIV-1/Ba-L, RT activity in supernatants; conditions: Table 7, VIH-1/Ba-L; for pEC50: read-out: ED50 (the source's name)
[2] = Cytotoxicity, MTT assay on day 7; conditions: human, uninfected PHA-P-activated PBMC, Table 7, read-out: Cytotoxicity CT50
Experimental: (§1) In parallel, cytotoxicity of the samples was evaluated in uninfected PHA-P-activated PBMC by a methyltetrazolium salt (MTT) assay on day 7. Experiments were performed in triplicate and 50, 70 and 90% effective doses and cytotoxic doses were calculated using SoftMaxPro software.

[3] = test system: uninfected PHA-P-activated PBMC; assay: Cytotoxicity, MTT assay on day 7; conditions: Table 7
Experimental: as §1

[4] = test system: X4-tropic HIV-1-LAI; assay: Antiviral assay, PHA-P-activated PBMC infected with HIV-1-LAI, RT activity in supernatants; conditions: Table 7, VIH-1-LAI; for pEC50: read-out: ED50 (the source's name)

Row | Compound | ED70 [1] [nM] | ED90 [1] [nM] | pEC50 [1] | CC50 at 168 h [2] [nM] | Cytotoxicity CT70 [3] [nM] | Cytotoxicity CT90 [3] [nM] | ED70 [4] [nM] | ED90 [4] [nM] | pEC50 [4]
1 | CSCC[C@H](N)C(=O)N[C@@H](CCC(=O)O)C(=O)N[C@@H](CC(=O)O)C(=O)N[C@@H](CC(C)C)C(=O)N[C@@H](CCC(=O)O)C(=O)N[C@@H](CCC(=O)O)C(=O)N[C@H](C(=O)N[C@@H](CC(C)C)C(=O)N[C@@H](Cc1ccccc1)C(=O)N[C@@H](CCC(=O)O)C(=O)N[C@@H](CCC(=O)O)C(=O)N[C@@H](Cc1ccccc1)C(=O)N[C@@H](CCC(=O)O)C(=O)N[C@@H](CC(N)=O)C(=O)N[C@@H](Cc1ccc(O)cc1)C(=O)N[C@@H](CO)C(=O)N[C@@H](Cc1ccc(O)cc1)C(=O)N[C@@H](CC(=O)O)C(=O)N[C@@H](CC(C)C)C(=O)N[C@@H](CC(=O)O)C(=O)N[C@@H](Cc1ccc(O)cc1)C(=O)N[C@@H](Cc1ccc(O)cc1)C(=O)N[C@@H](CO)C(=O)N[C@@H](CC(C)C)C(=O)N[C@@H](CCC(=O)O)C(=O)N[C@@H](CO)C(=O)N[C@@H](CSC1CC(=O)N(CCC(=O)NCCOCCOCCC(=O)NCCCC[C@@H]2NC(=O)[C@H](Cc3c[nH]cn3)NC(=O)[C@H](CC(C)C)NC(=O)[C@H](CC(N)=O)NC(=O)CCSSC[C@@H]3NC(=O)[C@H](CCCNC(=N)N)NC(=O)CNC(=O)[C@H](CC(C)C)NC(=O)[C@H](CC(C)C)NC(=O)CNC(=O)[C@H](CC(C)C)NC(=O)[C@H](CO)NC(=O)[C@H](CO)NC(=O)[C@@H]4CSSC[C@@H](C(=O)N[C@H](C(N)=O)C(C)C)NC(=O)[C@H](C)NC(=O)[C@H](CSSC[C@H](NC2=O)C(=O)N[C@@H](CCC(N)=O)C(=O)N[C@@H](CC(C)C)C(=O)N[C@@H](CCCNC(=N)N)C(=O)N4)NC(=O)[C@H](Cc2ccc(-c4ccccc4)cc2)NC(=O)[C@H](CO)NC(=O)CNC(=O)[C@H](C)NC3=O)C1=O)C(=O)O)[C@@H](C)O (stereo partly drawn) [mCD4-GPR1, reference compound] | 231 | 309 | 6.69 | > 1000 | >1000 | >1000 | 67 | 67.5 | 7.18
2 | COc1ccc(CO[C@H]2[C@H](OCc3ccccc3)[C@@H](OS(=O)(=O)O)[C@H](O[C@H]3[C@H](OCc4ccccc4)[C@@H](NS(=O)(=O)O)[C@@H](O[C@H]4[C@H](OCc5ccccc5)[C@@H](OS(=O)(=O)O)[C@H](O[C@H]5[C@H](OCc6ccccc6)[C@@H](NS(=O)(=O)O)[C@H](OCCCCCNC(=O)CCSC6CC(=O)N(CCC(=O)NCCOCCOCCC(=O)NCCCC[C@@H]7NC(=O)[C@H](Cc8c[nH]cn8)NC(=O)[C@H](CC(C)C)NC(=O)[C@H](CC(N)=O)NC(=O)CCSSC[C@@H]8NC(=O)[C@H](CCCNC(=N)N)NC(=O)CNC(=O)[C@H](CC(C)C)NC(=O)[C@H](CC(C)C)NC(=O)CNC(=O)[C@H](CC(C)C)NC(=O)[C@H](CO)NC(=O)[C@H](CO)NC(=O)[C@@H]9CSSC[C@@H](C(=O)N[C@H](C(N)=O)C(C)C)NC(=O)[C@H](C)NC(=O)[C@H](CSSC[C@H](NC7=O)C(=O)N[C@@H](CCC(N)=O)C(=O)N[C@@H](CC(C)C)C(=O)N[C@@H](CCCNC(=N)N)C(=O)N9)NC(=O)[C@H](Cc7ccc(-c9ccccc9)cc7)NC(=O)[C@H](CO)NC(=O)CNC(=O)[C@H](C)NC8=O)C6=O)O[C@@H]5COS(=O)(=O)O)O[C@H]4C(=O)O)O[C@@H]3COS(=O)(=O)O)O[C@H]2C(=O)O)cc1 (stereo partly drawn) [mCD4-HS4Bz, mCD4-PEO2-Bzl-tetrasaccharide] | 195 | 211 | 6.74 | > 1000 | >1000 | >1000 | 84 | 86 | 7.08
3 | COc1ccc(CO[C@H]2[C@H](OCc3ccccc3)[C@@H](OS(=O)(=O)O)[C@H](O[C@H]3[C@H](OCc4ccccc4)[C@@H](NS(=O)(=O)O)[C@@H](O[C@H]4[C@H](OCc5ccccc5)[C@@H](OS(=O)(=O)O)[C@H](O[C@H]5[C@H](OCc6ccccc6)[C@@H](NS(=O)(=O)O)[C@@H](O[C@H]6[C@H](OCc7ccccc7)[C@@H](OS(=O)(=O)O)[C@H](O[C@H]7[C@H](OCc8ccccc8)[C@@H](NS(=O)(=O)O)[C@@H](O[C@H]8[C@H](OCc9ccccc9)[C@@H](OS(=O)(=O)O)[C@H](O[C@H]9[C@H](OCc%10ccccc%10)[C@@H](NS(=O)(=O)O)[C@@H](O[C@H]%10[C@H](OCc%11ccccc%11)[C@@H](OS(=O)(=O)O)[C@H](O[C@H]%11[C@H](OCc%12ccccc%12)[C@@H](NS(=O)(=O)O)[C@@H](O[C@H]%12[C@H](OCc%13ccccc%13)[C@@H](OS(=O)(=O)O)[C@H](O[C@H]%13[C@H](OCc%14ccccc%14)[C@@H](NS(=O)(=O)O)[C@H](OCCCCCNC(=O)CCSC%14CC(=O)N(CCC(=O)NCCOCCOCCC(=O)NCCCC[C@@H]%15NC(=O)[C@H](Cc%16c[nH]cn%16)NC(=O)[C@H](CC(C)C)NC(=O)[C@H](CC(N)=O)NC(=O)CCSSC[C@@H]%16NC(=O)[C@H](CCCNC(=N)N)NC(=O)CNC(=O)[C@H](CC(C)C)NC(=O)[C@H](CC(C)C)NC(=O)CNC(=O)[C@H](CC(C)C)NC(=O)[C@H](CO)NC(=O)[C@H](CO)NC(=O)[C@@H]%17CSSC[C@@H](C(=O)N[C@H](C(N)=O)C(C)C)NC(=O)[C@H](C)NC(=O)[C@H](CSSC[C@H](NC%15=O)C(=O)N[C@@H](CCC(N)=O)C(=O)N[C@@H](CC(C)C)C(=O)N[C@@H](CCCNC(=N)N)C(=O)N%17)NC(=O)[C@H](Cc%15ccc(-c%17ccccc%17)cc%15)NC(=O)[C@H](CO)NC(=O)CNC(=O)[C@H](C)NC%16=O)C%14=O)O[C@@H]%13COS(=O)(=O)O)O[C@H]%12C(=O)O)O[C@@H]%11COS(=O)(=O)O)O[C@H]%10C(=O)O)O[C@@H]9COS(=O)(=O)O)O[C@H]8C(=O)O)O[C@@H]7COS(=O)(=O)O)O[C@H]6C(=O)O)O[C@@H]5COS(=O)(=O)O)O[C@H]4C(=O)O)O[C@@H]3COS(=O)(=O)O)O[C@H]2C(=O)O)cc1 (stereo partly drawn) [mCD4-HS12Bz, mCD4-PEO2-Bzl-dodecasaccharide] | >1000 | >1000 | < 6.00 | > 1000 | >1000 | >1000 | >1000 | >1000 | < 6.00

pEC50: −log10 of the molar value.
